Data taken from ChEMBL document CHEMBL1155233, “Structure mechanism insights and the role of nitric oxide donation guide the development of oxadiazole-2-oxides as therapeutic agents against schistosomiasis” (J Med Chem, 2009).
Calls of active or inactive are those of the source. The calls are words filed in the database; no cut-off is given here.

Columns and labels:
Schistosoma mansoni [1] = assay: Antischistosomal activity against Schistosoma mansoni assessed as parasite killing after 2 hrs; format: functional, organism-based
Procedure, shortened: (§1)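 Cultured ex vivo worms were exposed to 10 μM compound. Worm effects were scored by visual examination at time points over a 72 h time-course.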

Schistosoma mansoni [2] = assay: Antischistosomal activity against Schistosoma mansoni assessed as parasite killing after 4 hrs; format: functional; procedure, shortened: as §1
Schistosoma mansoni [3] = assay: Antischistosomal activity against Schistosoma mansoni assessed as induction of parasite mortality after 16 hrs; format: functional; set-up: concentration or dose not given beside the values; procedure, shortened: as §1
Schistosoma mansoni [4] = assay: Antischistosomal activity against Schistosoma mansoni assessed as induction of parasite mortality after 24 hrs; format: functional; set-up: concentration or dose not given beside the values; procedure, shortened: as §1
Schistosoma mansoni [5] = assay: Antischistosomal activity against Schistosoma mansoni assessed as induction of parasite mortality after 48 hrs; format: functional; set-up: concentration or dose not given beside the values; procedure, shortened: as §1

Structure (SMILES)	Activity (Schistosoma mansoni [1])	Activity (Schistosoma mansoni [2])	Activity (Schistosoma mansoni [3])	Activity (Schistosoma mansoni [4])	Activity (Schistosoma mansoni [5])
N#Cc1c(-c2ccc(-c3no[n+]([O-])c3C#N)cc2)no[n+]1[O-]	inactive	inactive	55%	82%	100%
N#Cc1c(-c2ccc(-c3no[n+]([O-])c3C#N)s2)no[n+]1[O-]	inactive	8%	62%	82%	100%
